From PMC5206724, “Insensitivity to pain induced by a potent selective closed-state Nav1.7 inhibitor” (Scientific Reports, 2017) come the findings set out here.

In test [1] the target is human Nav1.5 (human) (UniProt Q14524).
Test [2] has as its target human Nav1.6 (human) (UniProt Q9UQD0).
Test [3] addresses human Nav1.7 (human) (UniProt Q15858).
Test [4] concerns the target human Nav1.4 (human) (UniProt P35499).

Consider “JNJ63955918 (GP-ProTX-II W7Q, W30L) (from UniProt P83476 1-30) (peptide)”, for which the pIC50 of inhibition of sodium current, automated patch clamp (QPatch) in test [1] was < 5.5 -log10(IC50).

Turning to “ProTX-II W7Q, W30L lacking the extra GP residues (from UniProt P83476 1-30) (peptide)”, the pIC50 of inhibition of the sodium channel (method not given) in test [2] is 5.7 -log10(IC50); in test [3] it was 8 -log10(IC50); in test [4] it was 5.4 -log10(IC50).
